Assay [1] relates to Fusarium graminearum. Briefly: Fungicidal activity against Fusarium graminearum infested wheat field assessed as frequency of resistance at 750 g ai/ha applied upon initiation of flowering measured after 14 days post compound treatment.
For assay [2], the system named is Fusarium graminearum. Briefly: Fungicidal activity against Fusarium graminearum infested wheat field assessed as frequency of resistance at 500 g ai/ha applied upon initiation of flowering measured after 14 days post compound treatment.

The record followed here is ChEMBL document CHEMBL3044797 (Crop Prot, 2008).

Regarding `COC(=O)Nc1nc2ccccc2[nH]1`, the Activity in the assay on Fusarium graminearum [1] worked out at 13.4%. For the compound `CCOC(=O)/C(C#N)=C(/N)c1ccccc1`, the Activity with Fusarium graminearum [2] stood at 1.39%.
